Measured values from several laboratories, pooled; numbers as filed in NIAID ChemDB.

Shared fields: tests in culture; species: Candida albicans

Neighbouring rows are from separate reports.

SMILES | method | endpoint | strain | result
O=c1[nH]n2c(-c3cc(-c4ccccc4)no3)nnc2c2ccccc12 | - | MIC | - | 25 µg/mL
C#CC#CC#CC#C/C=C/C=C/C(O)CCCCC(=O)O | - | MIC | - | 0.05 µg/mL
Clc1ccc2c(c1)OCC(n1ccnc1)/C2=N\OCc1ccc(Cl)c(Cl)c1 | - | MIC | - | 8 µg/mL
Cc1ccc(NC2N3N=C(c4ccccc4)CC3=C3N4NC(=O)c5ccccc5C4=NN32)cc1 | - | MIC | - | >200 µg/mL
CCN1CCN(c2nc(Nc3ccc(C(=O)/C=C/c4ccc(OC)c(OC)c4)cc3)nc3ccccc23)CC1 | agar / visual reading | MIC | MTCC 183 | 100 µg/mL
COc1ccc2c(Cc3ccc(C(C)(C)C)cc3)c3[n+](cc2c1OC)CCc1cc2c(cc1-3)OCO2 | - | MIC | Isolate YH-003 | 3.13 µg/mL
N=C(N)c1ccc2nc(-c3ccc(-c4nc5ccc(C(=N)N)cc5[nH]4)[nH]3)[nH]c2c1 | - | MFC | Isolate 2370 fluconazole-resistant | 1.56 µg/mL
CCOC(=O)N1CCN(C(=S)Nc2nc(N3CCN(CC)CC3)c3ccccc3n2)CC1 | agar / visual reading | MIC | MTCC 183 | 100 µg/mL
O=C(N/N=C/c1ccc([N+](=O)[O-])o1)N1CCOCC1 | - | MIC | - | 100 µg/mL
CCC1CCCC(CC)C(=O)NCCCC(CC)C(OC2OC(C)C(O)C(N)C2OC2OC(CO)C(O)C(O)C2O)CC1 | - | Mean MIC | 12 strains | >10.7 µg/mL
COc1cc2cc(C(=O)N3CC4CC45C3=CC(=O)C3=C5C=C(C(=O)N4CCc5c4c(O)c(OC)c4[nH]c(SC(C)=O)cc54)C3)[nH]c2cc1O | - | MIC | ATCC 90018 | 0.0078 µg/mL
Cc1ccc(C2=NN(C=O)C(c3nnc4c5ccccc5c(=O)[nH]n34)C2)cc1 | - | MIC | - | >200 µg/mL
CC(=O)Nc1ccc(C(=O)/C=C/c2nc3ccccc3c(=O)n2-c2ccc(C)cc2)cc1 | - | MIC | - | >200 µg/mL
CN1CCN(C(=O)N/N=C/c2ccc([N+](=O)[O-])o2)CC1 | - | MIC | - | 100 µg/mL
CCN1CCN(c2nc(Nc3ccc(C(=O)/C=C/c4ccco4)cc3)nc3ccccc23)CC1 | agar / visual reading | MIC | MTCC 183 | 3.12 µg/mL
CC(=O)Nc1ccc(C(=O)/C=C/c2nc3ccccc3c(=O)n2-c2ccccc2)cc1 | - | MIC | - | >200 µg/mL
CCN1CCN(c2nc(NN=C3SCC(=O)N3c3ccccc3Cl)nc3ccccc23)CC1 | agar / visual reading | MIC | MTCC 183 | 25 µg/mL
O=NN(CC(=O)O)c1ccc(C(=O)/C=C/c2nc3ccccc3c(=O)n2-c2ccc(Br)cc2)cc1 | - | MIC | - | 50 µg/mL
CCC(=O)N1N=C(c2ccccc2)CC1c1nnc2c3ccccc3c(=O)[nH]n12 | - | MIC | - | 100 µg/mL
Cc1ccc(-n2c(/C=C/C(=O)c3ccc(N4CC(O)ON4)cc3)nc3ccccc3c2=O)cc1 | - | MIC | - | 100 µg/mL
Cn1cc(NC(=O)c2cc(NC(=O)c3cc(NC(=O)c4nsc(NCCN5CCNCC5)c4Cl)cn3C)cn2C)cc1C(=O)NCCN1CCNCC1 | - | MIC | 38247 | 4 µg/mL
CCC(C)n1ncn(-c2ccc(N3CCN(c4ccc(OC[C@H]5CO[C@](Cn6cncn6)(c6ccc(Cl)cc6Cl)O5)cc4)CC3)cc2)c1=O | - | MIC90 | 131 isolates | 0.25 µg/mL
COC(=O)C(C#N)C1C(=O)C(C)=C(C)C(=O)C1Sc1ccc(C)cc1 | - | MIC | Berkout KCCM 50235 | >50 µg/mL
COc1cc(O)c2c(=O)c(-c3ccc(O)cc3)coc2c1Cl | agar diffusion / agar | MIC | - | 23–35 µM
Cc1ccc(-n2c(/C=C/C(=O)c3ccc(NCC(=O)O)cc3)nc3ccccc3c2=O)cc1 | - | MIC | - | >200 µg/mL
COC(=O)C(C#N)C1C(=O)C(C)=C(C)C(=O)C1Sc1ccc(C)c(C)c1 | - | MIC | Berkout KCCM 50235 | 50 µg/mL
Cc1ccc(C2=NN(c3ccc(S(N)(=O)=O)cc3)C(c3nnc4c5ccccc5c(=O)[nH]n34)C2)cc1 | - | MIC | - | >200 µg/mL
CC(=O)Nc1ccc(C(=O)/C=C/c2nc3ccccc3c(=O)n2-c2ccc(Br)cc2)cc1 | - | MIC | - | >200 µg/mL
Clc1ccc(CO/N=C2\c3ccccc3OCC2n2ccnc2)cc1 | - | MIC | - | 8 µg/mL
O=C(N/N=C/c1ccc([N+](=O)[O-])o1)N1CCCCC1 | - | MIC | - | 100 µg/mL
Cn1cc(NC(=O)c2cc(NC(=O)c3cc(NC(=O)c4nsc(NCCN5CCNCC5)c4Cl)cn3C)cn2C)cc1C(=O)NCCCCN | - | MIC | 38247 | 2 µg/mL
COC(=O)C(C#N)C1C(=O)C(C)=C(C)C(=O)C1Sc1cccc(C)c1 | - | MIC | Berkout KCCM 50235 | >50 µg/mL
c1ccc(CO/N=C2/c3ccccc3OCC2n2ccnc2)cc1 | - | MIC | - | 16 µg/mL
CN(C)CCCCNC(=O)c1cc(NC(=O)c2cc(NC(=O)c3cc(NC(=O)c4nsc(N5CCNCC5)c4Cl)cn3C)cn2C)cn1C | - | MIC | 38247 | >32 µg/mL
Clc1ccc(CO/N=C2/c3ccc(Cl)cc3OCC2n2ccnc2)c(Cl)c1 | - | MIC | - | 8 µg/mL
CC(=O)Nc1ccc(/C=N/NC(N)=S)cc1 | - | MIC | - | 100 µg/mL
CN(C)CCCNC(=O)c1cc(NC(=O)c2cc(NC(=O)c3cc(NC(=O)c4nsc(N5CCCCC5)c4Cl)cn3C)cn2C)cn1C | - | MIC | 38247 | 8 µg/mL
Clc1ccc(CO/N=C2/c3ccccc3OCC2n2ccnc2)cc1Cl | - | MIC | - | 2 µg/mL
Cc1ccc(C(=O)/C=C/c2nnc3c4ccccc4c(=O)[nH]n23)cc1 | - | MIC | - | >200 µg/mL

Repeating the final 2 entries:

SMILES,method,endpoint,strain,result
Clc1ccc(CO/N=C2/c3ccccc3OCC2n2ccnc2)cc1Cl,-,MIC,-,2 µg/mL
Cc1ccc(C(=O)/C=C/c2nnc3c4ccccc4c(=O)[nH]n23)cc1,-,MIC,-,>200 µg/mL

An empty or dashed field is not shown. A number after MIC or MFC names an inhibition level or a share of isolates. a–b is a range or a potency band.